Experimental data: PubChem BioAssay AID1259414 (Drosophila RNAi Screening Center, 2018)

- Test: 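Host factors increasing or decreasing Wolbachia levels in cultured fly cells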 (primary screen)
- Cell system: Drosophila JW18 cells infected with Wolbachia
- Reagent: long dsRNA against Drosophila genes, 0.25 µg dsRNA per well of a 384-well plate
- Timing: 5 days
- Treatment: cells persistently infected with Wolbachia before knock-down; no added drug
- Measurement: 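Automated imaging of bacterial rRNA staining divided by host cell count, reported as plate-normalised robust z-score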
- Reading the numbers: Wolbachia per cell robust z: higher = more Wolbachia per host cell than the plate typical
- Rule for the call: 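Hit when robust z is 1.5 or more, or -1.5 or less, in at least two of three replicates; excludes dsRNAs with several or no targets, genes not expressed in JW18 and well A1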
The deposit covers about 24,000 reagents; shown is a random part of those that have a named target and a result. Over the whole deposit, about 1,210 (5%) got an active call. 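Inactive calls also include excluded dsRNAs with several or no targets, genes unexpressed in JW18, and well A1, regardless of score.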 The numbers tell different reagents against one gene apart. Names joined by + are all predicted targets of the reagent.

Target gene	reagent	Wolbachia per cell robust z, rep 1	Wolbachia per cell robust z, rep 2	Wolbachia per cell robust z, rep 3	Outcome
CG10600	1	0.622	0.565	0.341	inactive
brv1 (brivido-1)	1	-1.79	-1.8	0.257	active
TBC1D16 (TBC1 domain family member 16)	1	-1.6	0.0757	-1.46	inactive
r-cup (ryder cup)	1	-2.13	-0.916	-1.55	active
Cht7 (Chitinase 7)	1	0.938	0.576	0.822	inactive
Cht7 (Chitinase 7)	2	-1.38	-0.947	0.707	inactive
CG11837	1	0.0257	0.946	-6.76	inactive
alpha-Spec (alpha Spectrin)	1	-0.127	-1.03	-1.21	inactive
alpha-Spec (alpha Spectrin)	2	-2.03	-1.16	-1.65	active
CG42534	1	-1.56	0.366	1.11	inactive
CG42534	2	0.235	0.488	0.557	inactive
CG42534	3	-1.54	-0.016	-0.725	inactive
eIF4H1 (eukaryotic translation initiation factor 4H1)	1	0.614	0.965	1.56	inactive
Ldaf1 (Lipid droplet assembly factor 1)	1	1.11	0.133	0.0603	inactive
Ldaf1 (Lipid droplet assembly factor 1)	2	-2.69	-1.01	1.09	inactive
CG12025	1	-1.38	0.242	-2.12	inactive
CG15099	1	0.741	-0.224	0.267	inactive
CG10621	1	0.447	1.45	-2.28	inactive
Ada (Adenosine deaminase)	1	0.832	1.1	1.16	inactive
CheB93b (Chemosensory protein B 93b)	1	0.352	-0.96	-1.55	inactive
Aldh (Aldehyde dehydrogenase)	1	-0.532	-0.0652	-0.44	inactive
CG6144	1	-1.42	0.796	-0.985	inactive
WDR79 (WD repeat domain 79)	1	-0.337	0.472	2.07	inactive
CG13545	1	0.67	-0.203	-0.274	inactive
CG13545	2	0.0162	-0.339	-2.88	inactive
CG1631	1	-0.406	-1.14	-1.74	inactive
Hip14 (Huntingtin-interacting protein 14)	1	-2.1	0.579	-0.392	inactive
CG5969	1	0.729	1.14	0.931	inactive
CG5969	2	-2.11	-1.48	-0.222	inactive
CG34297	1	-0.294	0.317	0.519	inactive
CG42488 + CG5116	1	0.162	-1.11	-0.458	inactive
CG12910	1	-1.1	-1.34	-5.43	inactive
CG4835	1	1.38	0.619	1.32	inactive
CG4835	2	0.0921	-0.201	0.641	inactive
Elys	1	-1.01	0.0342	0.315	inactive
scpr-A (SCP-containing protein A)	1	0.439	0.608	-0.0619	inactive
NT1 (Neurotrophin 1)	1	-9.05	-0.704	-5.79	inactive
NT1 (Neurotrophin 1)	2	-2.01	-2.21	-0.872	inactive
Camp (Cathelicidin-like antimicrobial protein)	1	0.0665	0.479	0.803	inactive
Xpac (Xeroderma pigmentosum group A-like)	1	-0.985	-0.733	-1.16	inactive
Xpac (Xeroderma pigmentosum group A-like)	2	-0.0757	-0.71	0.321	inactive
CG14492	1	-2.65	0.525	-0.282	inactive
Hsc20 (Heat shock protein cognate 20)	1	-1.05	-1.48	-0.0316	inactive
Acp36DE (Accessory gland protein 36DE)	1	-1.62	-0.529	-1.51	inactive
CG18259	1	-1.34	-2.19	0.838	inactive
CG17118	1	1.23	0.672	-0.432	inactive
CG10214	1	-6.65	0.395	-0.301	inactive
bsf (bicoid stability factor)	1	0.729	-0.0679	0.806	inactive
CG6733	1	-0.092	-1.87	0.417	inactive
Ide (Insulin degrading metalloproteinase)	1	-2.48	-0.341	-1.59	active
CG31404	1	0.086	-0.0517	-5.98	inactive
CG31404	2	0.0175	0.194	0.938	inactive
CG43127	1	0.508	-0.0588	0.00618	inactive
Mal-A4 (Maltase A4)	1	0.798	0.797	1.38	inactive
Mal-A4 (Maltase A4)	2	-0.634	-0.162	-2.69	inactive
asRNA:CR31144 + RpL3	1	0.507	2.52	3.1	inactive
CG8907	1	-1.15	0.968	1.1	inactive
CG8907	2	0.641	0.153	-0.444	inactive
Vta1 (Vesicle trafficking 1)	1	-0.479	0.498	0.674	inactive
Vta1 (Vesicle trafficking 1)	2	-0.189	-0.66	-1.86	inactive
CG30156	1	0.252	-1.43	-0.462	inactive
Jon25Biii (Jonah 25Biii)	1	0.415	-0.326	-1.49	inactive
Jon25Biii (Jonah 25Biii)	2	-1.4	-4.65	-0.89	inactive
CG11110	1	-4.62	-0.502	0.129	inactive
CG11110	2	-1.77	0.94	0.95	inactive
gsb (gooseberry)	1	-0.488	0.347	0.0792	inactive
gsb (gooseberry)	2	0.491	1.3	-0.169	inactive
Nubpl (NUBP iron-sulfur cluster assembly factor, mitochondrial)	1	-0.198	0.596	0.214	inactive

8 entries already listed, arranged by “Wolbachia per cell robust z, rep 2”, highest first:
Target gene	reagent	Wolbachia per cell robust z, rep 1	Wolbachia per cell robust z, rep 2	Wolbachia per cell robust z, rep 3	Outcome
CG4835	1	1.38	0.619	1.32	inactive
scpr-A (SCP-containing protein A)	1	0.439	0.608	-0.0619	inactive
CG34297	1	-0.294	0.317	0.519	inactive
Elys	1	-1.01	0.0342	0.315	inactive
CG4835	2	0.0921	-0.201	0.641	inactive
CG42488 + CG5116	1	0.162	-1.11	-0.458	inactive
CG12910	1	-1.1	-1.34	-5.43	inactive
CG5969	2	-2.11	-1.48	-0.222	inactive
